From paper PMC5559489 (Scientific Reports, 2017)

Experiments:
[1] = molecular target: seasonal influenza A(H3N2) virus neuraminidase (NA) (Influenza A virus, UniProt V9SU56); assay type: biochemical
[2] = molecular target: seasonal influenza B virus neuraminidase (NA) (Influenza B virus, UniProt C0LT34); assay type: biochemical

## CCOC(=O)C1=C[C@@H](OC(CC)CC)[C@H](NC(C)=O)[C@@H](N)C1 [oseltamivir, Oseltamivir]
[1]
  Number of resistant viruses/Number of tested viruses, Seasonal A(H3N2): 0/98 and 0/27 and 0/36 and 0/21 and 0/48
[2]
  Number of resistant viruses/Number of tested viruses, Seasonal B: 0/279 and 0/79 and 0/10 and 0/26 and 0/54

Values joined by “and” are separate entries in the source; they are usually repeats but may differ in a detail not shown here. Equal entries are not always repeated.
